Anti-infective test results gathered from many reports (values: NIAID ChemDB through PubChem).

All rows: growth or infection tests; species: HIV-1

Two numbers with a dash give a range or band.

SMILES,strain or isolate,conditions,cell line,read-out,mutations,read by,result
Nc1ncnc2c1ncn2[C@H]1C[C@H]2OC[C@@H](O)[C@H]2O1,-,-,CEM + CEM-SS,EC50,-,-,>100 µM
O=C(O)CCCCCCCCCCCn1ccnn1,-,-,CEM,EC50,-,cytopathic effect,>1 µg/mL
N#Cc1c(-c2ccco2)nc(SCC(=O)Nc2nc(-c3ccccc3)cs2)[nH]c1=O,BaL,-,MDM,EC50,-,-,4.7 µM
CCc1c(NC)nc(Nc2ccc(C#N)cc2)nc1Oc1ccc2cc(Br)ccc2c1Br,IIIB,-,MT-4,EC50,WT,MTT,0.08 µM
CCCCC#CC1(C(F)(F)F)OC(=O)Nc2cccc(F)c21,RF,-,MT-2,EC90,-,-,0.00564 µM
Cc1c(Cl)nc(Nc2ccc(C#N)cc2)nc1Oc1ccc2ccccc2c1,IIIB,-,MT-4,EC50,WT,MTT,0.091 µM
CC1(C)c2nc(C(=O)NCc3ccc(F)cc3)c(O)c(=O)n2CCN1Cc1nnco1,-,-,MT-4,EC50,-,p24,<1 µM
CCCCCCCCCCO[C@@H]1O[C@H](COS(=O)(=O)O)[C@@H](OS(=O)(=O)O)[C@H](O[C@@H]2O[C@H](COS(=O)(=O)O)[C@@H](OS(=O)(=O)O)[C@H](O[C@@H]3O[C@H](COS(=O)(=O)O)[C@@H](OS(=O)(=O)O)[C@H](O[C@@H]4O[C@H](COS(=O)(=O)O)[C@@H](OS(=O)(=O)O)[C@H](O[C@@H]5O[C@H](COS(=O)(=O)O)[C@@H](OS(=O)(=O)O)[C@H](OS(=O)(=O)O)[C@H]5OS(=O)(=O)O)[C@H]4OS(=O)(=O)O)[C@H]3OS(=O)(=O)O)[C@H]2OS(=O)(=O)O)[C@H]1OS(=O)(=O)O,IIIB,-,MT-4,EC50,-,cytopathic effect / MTT,1.1 µg/mL
CCC(=O)c1ccc(F)c([C@@H]2C[C@@H]2NC(=O)Nc2ccc(Cl)cn2)c1O,IIIB,-,MT-4,EC50,RT-L100I,cytopathic effect / XTT,0.21 µM
CSCCC(OC(=O)[C@@H](N)c1ccccc1-c1c[nH]c2ccccc12)C(C)(C)C,NL4-3,-,MT-4,EC50,-,MTT,18 µM
Cc1cn(CCCO[C@H]2C=C[C@@H](CO)O2)c(=O)[nH]c1=O,IIIB,-,MT-4,EC50,-,cytopathic effect / MTT,>20 µg/mL
CCOCn1c(Cc2ccccc2)c(C(C)C)c(=O)[nH]c1=O,-,-,MT-4,EC50,K103N + Y181C,MTT,>100 µM
CSCC[C@H](C)OC(=O)[C@@H](NC(=O)CSC(C)(C)C)c1ccccc1-c1c[nH]c2ccccc12,NL4-3,-,MT-4,EC50,-,MTT,>16 µM
CCc1c(Cl)nc(Nc2ccc(C#N)cc2)nc1Oc1ccc2ccccc2c1Cl,IIIB,-,MT-4,EC50,K103N + Y181C,MTT,5.15 µM
Nc1ncnc2c1ncn2[C@H]1C[C@]12C[C@@H]2CO,RF,-,CEM + CEM-SS,EC50,-,-,>100 µM
CCCC#CC1(C(F)(F)F)OC(=O)Nc2ccc(N)cc21,RF,-,MT-2,EC90,-,-,0.04574 µM
Nc1nc2c(ncn2[C@H]2C[C@]23C[C@H]3CO)c(=O)[nH]1,-,-,CEM + CEM-SS,EC50,-,-,>100 µM
O=c1ccn([C@H]2C=C[C@@H](CO)O2)c(=O)n1CCCCN1CCN(CCNC(=S)Nc2ccc(Br)cn2)CC1,IIIB,-,MT-4,EC50,-,RT activity,>100 µM
CC(=O)N1CCn2c(nc(C(=O)NCc3ccc(F)cc3)c(O)c2=O)C1C,-,-,MT-4,EC50,-,p24,<50 µM
Cc1ccc(C)n1-c1ccc(C(=O)O)c(O)c1,AZT-resistant X4 CLADE B,-,MT-2,EC50,-,p24,11.57 µM
CCCC[C@H](C)OC(=O)[C@@H](N)c1ccccc1-c1c[nH]c2ccccc12,NL4-3,-,MT-4,EC50,-,MTT,2.7 µM
CC1(C)c2nc(C(=O)NCc3ccc(F)cc3)c(O)c(=O)n2CCN1Cc1cnccn1,-,-,MT-4,EC95,-,p24,<1 µM
Cc1cn([C@H]2C=C[C@@H](CO)O2)c(=O)n(CCCCN2CCN(CCNC(=S)Nc3ccc(Br)cn3)CC2)c1=O,IIIB,-,MT-4,EC50,-,RT activity,>100 µM
COCC[C@H](C)OC(=O)[C@@H](N)c1ccccc1-c1c[nH]c2ccccc12,NL4-3,-,MT-4,EC50,-,MTT,26 µM
Nc1ncnc2c1ncn2[C@H]1C[C@@]12C[C@@H]2CO,RF,-,CEM + CEM-SS,EC50,-,-,>100 µM
Cc1cc(-c2ccncc2)cc(C)c1Oc1nc(Nc2ccc(C#N)cc2)nc2c(Cl)cn(C)c12,-,pseudotyped,HeLa,EC50,-,luciferase,0.001–0.01 µM
Cc1cn([C@H]2C=C[C@@H](CO)O2)c(=O)n(CCCCCCN2CCN(CCNC(=S)Nc3ccc(Br)cn3)CC2)c1=O,IIIB,-,PBMC,EC50,-,RT activity,70 µM
O=C1NN(c2ccc(Br)cc2)C(=O)C1Cc1ccc([N+](=O)[O-])o1,BaL,-,MDM,EC50,-,-,0.7 µM
Cn1ccnc1CCCCCCCCCCCC(=O)O,-,-,CEM,EC50,-,cytopathic effect,>10 µg/mL
Cc1cc(C#N)cc(C)c1Oc1nc(Nc2ccc(C#N)cc2)nc(N)c1Br,IIIB,-,MT-4,EC50,Y181C,MTT,0.014 µM
CN1CCn2c(nc(C(=O)NCc3ccc(F)cc3)c(O)c2=O)C(NS(C)(=O)=O)C1,-,-,MT-4,EC95,-,p24,<50 µM
Nc1ncnc2c1ncn2[C@H]1C[C@@]12C[C@H]2CO,-,-,CEM + CEM-SS,EC50,-,-,>100 µM
Cc1cn([C@H]2C[C@H](N=[N+]=[N-])[C@@H](CO)O2)c(=O)[nH]c1=O,IIIB,-,MT-4,EC50,Y181C,MTT,0.012 µM
CCOC(=O)CCCCCCCCCC(=O)O,-,-,CEM,EC50,-,cytopathic effect,>1 µg/mL
Cc1cn([C@H]2C=C[C@@H](CO)O2)c(=O)n(CCCN2CCN(CCNC(=S)Nc3ccc(Br)cn3)CC2)c1=O,IIIB,-,MT-4,EC50,-,RT activity,>100 µM
Cc1c(Cl)nc(Nc2ccc(C#N)cc2)nc1Oc1ccc2ccccc2c1Br,IIIB,-,MT-4,EC50,K103N + Y181C,MTT,16.53 µM
CCCCCCOCCOCCO[C@@H]1O[C@H](COS(=O)(=O)O)[C@@H](OS(=O)(=O)O)[C@H](O[C@@H]2O[C@H](COS(=O)(=O)O)[C@@H](OS(=O)(=O)O)[C@H](O[C@@H]3O[C@H](COS(=O)(=O)O)[C@@H](OS(=O)(=O)O)[C@H](O[C@@H]4O[C@H](COS(=O)(=O)O)[C@@H](OS(=O)(=O)O)[C@H](O[C@@H]5O[C@H](COS(=O)(=O)O)[C@@H](OS(=O)(=O)O)[C@H](OS(=O)(=O)O)[C@H]5OS(=O)(=O)O)[C@H]4OS(=O)(=O)O)[C@H]3OS(=O)(=O)O)[C@H]2OS(=O)(=O)O)[C@H]1OS(=O)(=O)O,IIIB,-,MT-4,EC50,-,cytopathic effect / MTT,1.8 µg/mL
Nc1ncnc2c1ncn2[C@H]1C[C@]12C[C@H]2CO,-,-,CEM + CEM-SS,EC50,-,-,>100 µM
CC1CCC(O[C@@H]2O[C@H](COS(=O)(=O)O)[C@@H](OS(=O)(=O)O)[C@H](O[C@@H]3O[C@H](COS(=O)(=O)O)[C@@H](OS(=O)(=O)O)[C@H](O[C@@H]4O[C@H](COS(=O)(=O)O)[C@@H](OS(=O)(=O)O)[C@H](O[C@@H]5O[C@H](COS(=O)(=O)O)[C@@H](OS(=O)(=O)O)[C@H](O[C@@H]6O[C@H](COS(=O)(=O)O)[C@@H](OS(=O)(=O)O)[C@H](OS(=O)(=O)O)[C@H]6OS(=O)(=O)O)[C@H]5OS(=O)(=O)O)[C@H]4OS(=O)(=O)O)[C@H]3OS(=O)(=O)O)[C@H]2OS(=O)(=O)O)CC1,IIIB,-,MT-4,EC50,-,cytopathic effect / MTT,0.97 µg/mL
CC1(C)c2nc(C(=O)NCc3ccc(F)cc3)c(O)c(=O)n2CCN1Cc1ccccn1,-,-,MT-4,EC95,-,p24,<1 µM
CCOCCOCCOCCO[C@@H]1O[C@H](COS(=O)(=O)O)[C@@H](OS(=O)(=O)O)[C@H](O[C@@H]2O[C@H](COS(=O)(=O)O)[C@@H](OS(=O)(=O)O)[C@H](O[C@@H]3O[C@H](COS(=O)(=O)O)[C@@H](OS(=O)(=O)O)[C@H](O[C@@H]4O[C@H](COS(=O)(=O)O)[C@@H](OS(=O)(=O)O)[C@H](O[C@@H]5O[C@H](COS(=O)(=O)O)[C@@H](OS(=O)(=O)O)[C@H](OS(=O)(=O)O)[C@H]5OS(=O)(=O)O)[C@H]4OS(=O)(=O)O)[C@H]3OS(=O)(=O)O)[C@H]2OS(=O)(=O)O)[C@H]1OS(=O)(=O)O,IIIB,-,MT-4,EC50,-,cytopathic effect / MTT,110 µg/mL
CNc1nc(Nc2ccc(C#N)cc2)nc(Oc2ccc3ccccc3c2)c1C(C)C,IIIB,-,MT-4,EC50,K103N + Y181C,MTT,>25.15 µM
CCCCCCO[C@@H]1O[C@H](COS(=O)(=O)O)[C@@H](OS(=O)(=O)O)[C@H](O[C@@H]2O[C@H](COS(=O)(=O)O)[C@@H](OS(=O)(=O)O)[C@H](O[C@@H]3O[C@H](COS(=O)(=O)O)[C@@H](OS(=O)(=O)O)[C@H](O[C@@H]4O[C@H](COS(=O)(=O)O)[C@@H](OS(=O)(=O)O)[C@H](O[C@@H]5O[C@H](COS(=O)(=O)O)[C@@H](OS(=O)(=O)O)[C@H](OS(=O)(=O)O)[C@H]5OS(=O)(=O)O)[C@H]4OS(=O)(=O)O)[C@H]3OS(=O)(=O)O)[C@H]2OS(=O)(=O)O)[C@H]1OS(=O)(=O)O,IIIB,-,MT-4,EC50,-,cytopathic effect / MTT,1.1 µg/mL
CCc1c(Cl)nc(Nc2ccc(C#N)cc2)nc1Oc1ccc2cc(C#N)ccc2c1Br,IIIB,-,MT-4,EC50,WT,MTT,0.732 µM
[N-]=[N+]=NCCCCCCCCCCCC(=O)O,-,-,CEM,EC50,-,cytopathic effect,<1 µg/mL
CC(C)N1CCn2c(nc(C(=O)NCc3ccc(F)cc3)c(O)c2=O)C(N(C)C(=O)C(=O)N(C)C)C1,-,-,MT-4,EC50,-,p24,<1 µM
O=C(O)CCCCCCCCCCCCn1ncnn1,-,-,CEM,EC50,-,cytopathic effect,>10 µg/mL
CCC(=O)c1ccc(F)c([C@H]2C[C@H]2NC(=O)Nc2ccc(C#N)cn2)c1O,IIIB,-,MT-4,EC50,-,cytopathic effect / XTT,0.002 µM

Repeating the final 5 entries:

SMILES,strain or isolate,conditions,cell line,read-out,mutations,read by,result
CCc1c(Cl)nc(Nc2ccc(C#N)cc2)nc1Oc1ccc2cc(C#N)ccc2c1Br,IIIB,-,MT-4,EC50,WT,MTT,0.732 µM
[N-]=[N+]=NCCCCCCCCCCCC(=O)O,-,-,CEM,EC50,-,cytopathic effect,<1 µg/mL
CC(C)N1CCn2c(nc(C(=O)NCc3ccc(F)cc3)c(O)c2=O)C(N(C)C(=O)C(=O)N(C)C)C1,-,-,MT-4,EC50,-,p24,<1 µM
O=C(O)CCCCCCCCCCCCn1ncnn1,-,-,CEM,EC50,-,cytopathic effect,>10 µg/mL
CCC(=O)c1ccc(F)c([C@H]2C[C@H]2NC(=O)Nc2ccc(C#N)cn2)c1O,IIIB,-,MT-4,EC50,-,cytopathic effect / XTT,0.002 µM

ECn: concentration that inhibits the pathogen or its effect by n%. Rows are shuffled and stem from different studies. Blank or dashed fields: not listed here.